Results of unrelated studies side by side (data: NIAID ChemDB).

Common to all: whole-cell or culture tests; species: Herpes simplex virus 1; read by: cytopathic effect; endpoint: EC50

An empty or dashed field is not shown. ECn is the concentration giving n% inhibition of infection, replication or growth. Rows are shuffled and stem from different studies.

| smiles | cells | strain | value |
|---|---|---|---|
| Cc1cn([C@@H]2O[C@H](COP(=O)(O)O)[C@@H](O)[C@@H]2O)c(=O)[nH]c1=O | HELF | MP | 0.66 µg/mL |
| CC1(C)C[C@H]2[C@H](OC(=O)[C@H](O)[C@@H](NC(=O)c3ccccc3)c3ccccc3)C34COC(=O)C3(C4)C[C@](C)(O)[C@H]2C1 | VERO | McIntyre | 21.9 µg/mL |
| Cc1cc([C@@H]2C[C@H](O)[C@@H](CO)O2)c(F)cc1F | E6SM | KOS | >400 µg/mL |
| CCN(CC)C(=O)N1CCN(c2ncnc(N3CC[N+]4(CC3)CC[N+]3(CCN(c5ncnc(N6CCN(C(=O)N(CC)CC)CC6)c5[N+](=O)[O-])CC3)CC4)c2[N+](=O)[O-])CC1 | GMK | - | 5.15 µg/mL |
| Nc1nc2c(ncn2[C@@H]2C[C@H](CO)[C@H]2CO)c(=O)[nH]1 | VERO | TK- | 11 µg/mL |
| COc1cc(F)c([C@H]2C[C@H](O)[C@@H](CO)O2)cc1[N+](=O)[O-] | E6SM | VMW 1837 | >400 µg/mL |
| Cc1cn([C@H]2C[C@H](O)[C@@H](CO)S2)c(=O)[nH]c1=O | VERO | E-377 | 0.8 µg/mL |
| OC[C@H]1O[C@@H](c2cc(C(O)CBr)c(F)cc2F)C[C@@H]1O | E6SM | KOS (TK-) | >3.2 µg/mL |
| Nc1ncnc2c1ncn2N1C[C@H](CO)[C@H]1CO | VERO | - | 33.2 µg/mL |
| Cc1cc([C@@H]2C[C@H](O)[C@@H](CO)O2)c(Cl)cc1F | E6SM | McIntyre | >400 µg/mL |
| [O-][n+]1onc2c(N3CC[N+]4(CC3)CC[N+]3(CCN(c5ncnc6no[n+]([O-])c56)CC3)CC4)ncnc21 | GMK | - | 16.17 µg/mL |
| O=c1[nH]c(=O)n([C@H]2C[C@H](O)[C@@H](CO)O2)cc1I | PRK | KOS | 0.2 µg/mL |
| CC(=O)O[C@H]1C[C@](C)(O)/C=C/C[C@@H](C)/C=C/[C@@]2(C)CC[C@@H](C(C)(C)OC(C)=O)[C@H]12 | VERO | - | <15 µM |
| CC(C)(C)c1cn([C@H]2C[C@H](O)[C@@H](CO)O2)c(=O)[nH]c1=O | E6SM | KOS McIntyre F | 253 µM |
| C=Cc1cn([C@H]2C[C@H](OC(=O)C3=CN(C)C=CC3)[C@@H](CO)O2)c(=O)[nH]c1=O | HFF | - | 0.13 µM |
| COc1ccc(-c2cn3c(=O)c4ncn(COC(CO)CO)c4nc3[nH]2)cc1 | - | TK-deficient acyclovir-resistant | >16 µg/mL |
| C1CN(CC2CO2)CC[N+]2(C1)CC[N+]1(CCCN(CC3CO3)CC1)CC2 | GMK | - | 14.02 µg/mL |
| O=c1[nH]c(=O)n([C@H]2C[C@H](O)[C@@H](CO)O2)cc1C1CC1 | E6SM | KOS McIntyre F | 59 µM |
| C/C=C\c1nc2c(N)ncnc2n1[C@H]1C[C@H](O)[C@@H](CO)O1 | ESM | KOS | >100 µg/mL |
| O=P(O)(O)OC[C@H]1OC(O)[C@@H](O)[C@@H](O)[C@@H]1O | E6SM | - | >400 µg/mL |
| C[C@@]1(O)[C@H](O)[C@@H](COP(=O)(O)OP(=O)(O)OP(=O)(O)O)O[C@H]1n1ccc2c(N)ncnc21 | VERO | - | >320 µM |
| Nc1ccn([C@H]2C[C@@H](O)[C@H](CO)O2)c(=O)n1 | VERO B | F | >10 µM |
| O=c1[nH]c(=O)n([C@H]2C[C@H](O)[C@@H](CO)O2)cc1F | PRK | KOS | 20 µg/mL |
| Nc1nc2c(ncn2COC(CO)CO)c(=O)[nH]1 | VERO | - | 1 µg/mL |
| Cc1c(O)c(=O)ccn1[C@@H]1CS[C@@H](CO)O1 | HEL | TK- | 85 µM |
| Cc1nc2ccc(Br)cc2c(=O)n1-c1nnc(-c2cccc(Cl)c2Cl)c(N)n1 | E6SM | KOS ACV (TK-) | >3.2 µg/mL |
| O=c1[nH]c(=O)n([C@H]2C[C@H](O)[C@@H](COP(=O)([O-])OP(=O)([O-])OC[C@@H]3OC(O)[C@H](O)[C@H](O)[C@H]3O)O2)cc1I | E6SM | KOS | 0.4 µg/mL |
| O=[N+]([O-])c1c(N2CC[N+]3(CC2)CC[N+]2(CCNCC2)CC3)ncnc1N1CC[N+]2(CC1)CC[N+]1(CCNCC1)CC2 | GMK | - | 5.67 µg/mL |
| Nc1nc2c(ncn2COC(CO)COP(=O)(O)OP(=O)(O)OP(=O)(O)O)c(=O)[nH]1 | VERO | - | 0.3 µg/mL |
| Nc1nc2c(ncn2[C@@H]2C=C[C@H](CO)[C@@H](O)C2)c(=O)[nH]1 | E6SM | VMW1837 (TK-/TK+) | 0.01 µg/mL |
| CCCCCC#Cc1nc2c(N)ncnc2n1[C@H]1C[C@H](O)[C@@H](CO)O1 | ESM | KOS | >100 µg/mL |
| O=c1[nH]c(=O)n([C@H]2C[C@H](O)[C@@H](CO)O2)cc1/C=C/I | HFF | - | 0.016 µM |
| CCOC[C@H]1O[C@@H](n2ccc(N)nc2=O)[C@@H](O)[C@@H]1O | PRK | - | >200 µg/mL |
| Nc1nc2c(ncn2C[C@]2(CO)C[C@H]2CO)c(=O)[nH]1 | VERO | TK- | ≥70 µg/mL |
| CS(=O)Cc1cn([C@H]2C[C@H](O)[C@@H](CO)O2)c(=O)[nH]c1=O | PRK | KOS McIntyre F | >400 µg/mL |
| CC(C)(C)c1cn([C@H]2C[C@H](O)[C@@H](CO)S2)c(=O)[nH]c1=O | E6SM | KOS McIntyre F | 0.73 µM |
| CC1(C)C[C@H]2[C@H](OC(=O)[C@H](O)[C@@H](NC(=O)c3ccccc3)c3ccccc3)c3cocc3C[C@](C)(O)[C@H]2C1 | VERO | McIntyre | 15 µg/mL |
| COc1cc(Cc2cnc(-n3c(-c4ccccc4)nc4ccc(Br)cc4c3=O)nc2N)cc(OC)c1OC | E6SM | KOS | 48 µg/mL |
| OC[C@H]1O[C@@H](c2cc(C(O)C(I)I)c(F)cc2F)C[C@@H]1O | E6SM | VMW 1837 | >80 µg/mL |
| CN(C)c1cn([C@@H]2C[C@H](CO)[C@@H](O)C2)c(=O)[nH]c1=O | PRK | 377 | 290 µg/mL |
| O=c1c2ncn(COC(CO)CO)c2[nH]c2nccn12 | - | McIntyre | 0.7 µg/mL |
| NN1CC[N+]2(CC1)CC[N+]1(CCN(N)CC1)CC2 | GMK | - | 71.92 µg/mL |
| O=c1[nH]c(=O)n([C@H]2C[C@H](O)[C@@H](CO)S2)cc1C1CCCCC1 | E6SM | KOS McIntyre F | 7 µM |
| Nc1ncnc2c1ncn2[C@@H]1O[C@H](CO)[C@@H](O)[C@@H]1O | HEP II | - | 3.2 µg/mL |
| CC(=O)OCCOCn1cnc2c(=O)n3cc(-c4ccc5ccccc5c4)[nH]c3nc21 | - | TK-deficient acyclovir-resistant | >16 µg/mL |
| Nc1ncnc2c1ncn2[C@@H]1O[C@H](CO)[C@@H](O)[C@H]1OP(=O)(O)OC[C@H]1O[C@@H](n2cnc3c(N)ncnc32)[C@H](OP(=O)(O)OC[C@H]2O[C@@H](n3cc(F)c(=O)[nH]c3=O)C[C@@H]2O)[C@@H]1O | PRK | McIntyre | 20 µg/mL |
| CN1C=CCC(C(=O)O[C@H]2C[C@H](n3cc(/C=C/I)c(=O)[nH]c3=O)O[C@@H]2CO)=C1 | HFF | - | 0.014 µM |
| O=c1c2ncn(COCCO)c2nc2[nH]c(-c3ccc(C(F)(F)F)cc3)cn12 | HEL | KOS | 48 µg/mL |
| CCc1nc2c(N)ncnc2n1[C@H]1C[C@H](O)[C@@H](CO)O1 | ESM | KOS | 300 µg/mL |
| Nc1nc2c(ncn2COC(CO)COP(=O)(O)OP(=O)(O)O)c(=O)[nH]1 | VERO | - | 0.08 µg/mL |
| Nc1nc2c(ncn2CCC(CO)CO)c(=O)[nH]1 | VERO | - | 6.6 µg/mL |
| CCc1nc(-n2c(C)nc3ccc(Br)cc3c2=O)nc(N)c1-c1ccc(Cl)cc1 | E6SM | KOS | >16 µg/mL |
| O=c1c2ncn(COC(CO)CO)c2nc2[nH]c(-c3ccccc3)cn12 | - | KOS | 0.02 µg/mL |
| Nc1nc2c(ncn2COCCOP(=O)(O)OP(=O)(O)OP(=O)(O)O)c(=O)[nH]1 | VERO | - | 1.09 µg/mL |
| CC1(C)C[C@H]2[C@H](OC(=O)[C@H](O)[C@@H](NC(=O)c3ccccc3)c3ccccc3)C3=C(C[C@](C)(O)[C@H]2C1)C(=O)OC3 | VERO | McIntyre | 17.3 µg/mL |
| CCCc1cn([C@H]2C[C@H](O)[C@@H](CO)O2)c(=O)[nH]c1=O | E6SM | KOS McIntyre F | 5.4 µM |
| CO[C@H]1[C@H](O)[C@@H](CO)O[C@H]1n1ccc(N)nc1=O | PRK | - | >200 µg/mL |
| NC1=NCCN1CC(=O)O | VERO | BW10168 (TK-) | 4300 µM |
| O=c1ccn([C@H]2C[C@@H](O)[C@H](CO)O2)c(=O)[nH]1 | VERO B | F | >100 µM |
| O=c1[nH]c(=O)n([C@@H]2O[C@H](CO)[C@@H](O)[C@H]2O)cc1/C=C/Br | HEP-2 | KOS | 150 µg/mL |
| O=c1[nH]c(=O)n([C@H]2C[C@H](O)[C@@H](CO)O2)cc1I | Primary rabbit kidney cells | LYONS | 1 µg/mL |
| Nc1nc(N)c2ncn([C@@H]3C=C[C@H](CO)[C@@H](O)C3)c2n1 | HEL | - | 0.38 µg/mL |
| Nc1ccn([C@@H]2C[C@H](CO)[C@@H](O)[C@H]2O)c(=O)n1 | PRK | KOS | 100 µg/mL |
| NC1=NC2C(C=CN2CC(CO)CCO)C(=O)N1 | VERO | TK- | >100 µg/mL |
| COc1ncnc2c1ncn2[C@@H]1O[C@H](CO)[C@@H](O)[C@@H]1O | VERO | - | >100 µM |
| OC[C@H]1O[C@H](c2cc(Cl)c(F)cc2F)C[C@@H]1O | E6SM | McIntyre | >400 µg/mL |
| Nc1nc2c(ncn2COC(CO)CO)c(=O)[nH]1 | VERO | - | 0.55 µg/mL |